From patent US10603701B2, “Bioremediation of 1,4-dioxane and chlorinated aliphatic hydrocarbons by propanotrophic bacteria” (New Jersey Institute of Technology, priority 2018, dated 2020)

Test system: Azoarcus sp. DD4
Experiment: Cometabolism of CAHs by DD4 resting cells after being fed with propane
Type: cell-based
Conditions: 0.13 mg protein mL^−1, 24 h, headspace GC

SMILES: Cl/C=C/Cl [trans-1,2-DCE]
- cometabolism by DD4 resting cells after growth with propane: no degradation
